Anti-infective test results gathered from many reports (values: NIAID ChemDB through PubChem).

Shared fields: growth or infection tests

Fold resistance has wild type as its base.

compound,conditions,measure,cell line,changes,strain,method,species,dose,result
CC(C)=CCN1Cc2cccc3[nH]c(=S)n(c23)C[C@@H]1C,,EC50,CEM + CEM-SS,,IIIB,XTT,HIV-1,,0.1 µM
NC(=NCCC[C@H](N)C(=O)O)N[C@@H](CC(=O)O)C(=O)O,,EC50,HeLa,,KOS,cytopathic effect,Herpes simplex virus 1,,>200 µg/mL
COc1ccc(-c2cc(=O)c3c(O)cc(O)cc3o2)cc1,,EC50,VERO,,,,Bovine herpesvirus 1,,>20 µg/mL
O=C(Nc1ccccc1)c1c(O)[nH]c(=S)[nH]c1=O,,EC50,P3HR-1,,,PCR,Epstein-Barr virus,,20.12 µM
CCCCCCCC/C=C\CCCCCCCC(=O)OCC(O)CO,,EC50,HeLa,,KOS,cytopathic effect,Herpes simplex virus 1,,>200 µg/mL
CCc1c2c(nc3ccc(O)cc13)-c1cc3c(c(=O)n1C2)COC(=O)[C@]3(O)CC,,MIC,,,Mutant ΔERG6 ΔTOP1,,Saccharomyces cerevisiae,,>100 µg/mL
N[C@@H](COP(=O)(O)OC[C@H](O)CO)C(=O)O,,EC50,HeLa,,KOS,cytopathic effect,Herpes simplex virus 1,,>200 µg/mL
CCN(CC)c1nc2c(s1)c1c(O)c3c(O)c(C)c4c(c32)C(=O)[C@@](C)(O/C=C/[C@H](OC)[C@@H](C)[C@@H](OC(C)=O)[C@H](C)[C@H](O)[C@H](C)[C@@H](O)[C@@H](C)/C=C/C=C(/C)C(=O)N1)O4,,MBC,,,9141,,Mycobacterium avium,,4 µg/mL
CC[C@@]1(O)C(=O)OCc2c1cc1n(c2=O)Cc2cc3cc(O)ccc3nc2-1,,MIC,,,JHY6-1C,,Saccharomyces cerevisiae,,>100 µg/mL
c1cc(CN2CCCNCCNCCCNCC2)ccc1CN1CCCNCCNCCCNCC1,,inhibition,PBMC,,SW12 CLADE C X4,p24,HIV-1,0.5 µM,86%
COc1c(C)c2c(c(O)c1CC(=O)O)C(=O)OC2,,EC50,HeLa,,TYPE A/LONG,plaque count,Respiratory syncytial virus,,0.42 µg/mL
COc1cc([C@@H]2c3cc4c(cc3[C@@H](O[C@@H]3O[C@@H]5CO[C@@H](c6cccs6)O[C@H]5[C@H](O)[C@H]3O)[C@H]3COC(=O)[C@H]23)OCO4)cc(OC)c1O,7 d,inhibition,,,,,Pneumocystis carinii,10 µg/mL,72%
OC(Cn1cncn1)(Cn1cncn1)c1ccc(F)cc1F,,MIC,,,YL 325,broth dilution,Candida albicans,,512 µg/mL
O=c1c(O)c(-c2ccccc2)oc2cc(O)cc(O)c12,,EC50,VERO,,,,Bovine herpesvirus 1,,>15 µg/mL
Nc1ccccc1O[C@@H]1O[C@H](C(=O)O)[C@@H](O)[C@H](O)[C@H]1O,,EC50,HeLa,,KOS,cytopathic effect,Herpes simplex virus 1,,>200 µg/mL
CCc1c(C(=O)c2cc(C)cc(C)c2)n(CC2CC=CC2)c(=O)[nH]c1=O,clinical isolate,EC50,PBMC,,CDC310319,cytopathic effect / XTT,HIV-2,,0.04 µM
Cc1cn([C@H]2C[C@H](N=[N+]=[N-])[C@@H](CO)O2)c(=O)[nH]c1=O,,fold resistance,CEM + CEM-SS,RT-Y181C,Nevirapine-resistant (RT Y181C),XTT,HIV-1,,0.6
CC1CCC(C(=O)N(c2cc(C#CC(C)(C)C)sc2C(=O)O)C2CCC(O)CC2)CC1,,fold resistance,1C,M423T,Con1,luciferase,Hepatitis C virus,,80
Nc1ncnc2c1ncn2[C@@H]1C=C(CO)[C@@H](O)[C@H]1O,,MIC,,,,,Tacaribe virus,,0.3 µg/mL
C#CC[C@@H](C(=O)N[C@H](/C=C/C(=O)OCC)C[C@@H]1CCNC1=O)n1cccc(NC(=O)c2cc(C)on2)c1=O,,EC50,H1-HELA,,Serotype 95,cytopathic effect / XTT,Rhinovirus,,0.048 µM
CCc1c2c(nc3ccc(OC(=O)N4CCC(N5CCCCC5)CC4)cc13)-c1cc3c(c(=O)n1C2)COC(=O)[C@]3(O)CC,,MIC,,,Mutant ΔERG6,,Saccharomyces cerevisiae,,500 µg/mL
CCCc1cc(=O)oc2c3c(c4c(c12)OC(C)(C)C=C4)O[C@@H](C)[C@H](C)[C@@H]3O,,EC50,CEM + CEM-SS,RT-D67N K70R Y181C T215Y K219Q,NL4-3(RT-4XAZT+Y181C),XTT,HIV-1,,0.01 µM
CC(C)OC(=O)[C@H](C)N[P@](=O)(OC[C@H]1O[C@@](C#N)(c2ccc3c(N)ncnn23)[C@](C)(O)[C@@H]1OC(=O)C(C)C)Oc1ccccc1,,fold resistance,1C,T54A,1b Con1,luciferase,Hepatitis C virus,,0.81
CCN(CC)CCCC(C)Nc1ccnc2cc(Cl)ccc12,,EC50,HepG2,,Pb1052 c11,luciferase,Plasmodium berghei,,>1.2 µM
[N-]=[N+]=N[C@]1(CO)O[C@@H](n2ccc(N)nc2=O)[C@H](O)[C@@H]1O,,fold resistance,1C,N142T,Con1,luciferase,Hepatitis C virus,,1.6
COc1cc2c[n+](C)c3c4cc5c(cc4ccc3c2cc1OC)OCO5,,MIC,,,Mutant ΔERG6 ΔTOP1,,Saccharomyces cerevisiae,,3.12 µg/mL
Cc1ccnc2c1NC(=O)c1cccnc1N2C1CC1,,fold resistance,CEM + CEM-SS,RT-T139I,NL4-3,XTT,HIV-1,,0.1
CN[C@@H]1[C@@H](O[C@H]2O[C@H](CO)[C@@H](N)[C@H](O)[C@H]2O)O[C@H]2C[C@@H](N)C(O[C@H]3[C@H](O)[C@@H](O)[C@H](N)C[C@@H]3N)O[C@@H]2[C@@H]1O,,EC50,HeLa,,KOS,cytopathic effect,Herpes simplex virus 1,,>200 µg/mL
NC(=O)c1ncn([C@H]2C=C[C@@H](CO)O2)n1,,EC50,,,,plaque count,Punta Toro virus,,28 µg/mL
Nc1ncnc2c1ncn2CCOCP(=O)(O)O,,MIC,,,TYPE 3,,Adenovirus,,>100 µg/mL
C[C@@H]1CN(c2c(F)c(N)c3c(=O)c(C(=O)O)cn(C4CC4)c3c2F)C[C@H](C)N1,,MIC,,,15,broth dilution,Mycobacterium avium complex,,≤0.06 µg/mL
CC(C)=CCOc1cc(NC(=S)c2ccsc2C)ccc1Cl,,fold resistance,CEM + CEM-SS,RT-L100I T139I,Costatolide-resistant (RT L100I T139I),XTT,HIV-1,,1.6
COC(=O)[C@H]1[C@H]2C[C@@H]3c4[nH]c5cc(OC)ccc5c4CCN3C[C@H]2C[C@@H](OC(=O)c2cc(OC)c(OC)c(OC)c2)[C@@H]1OC,,EC50,HeLa,,KOS,cytopathic effect,Herpes simplex virus 1,,>200 µg/mL
CCc1c2c(nc3ccc(O)cc13)-c1cc3c(c(=O)n1C2)COC(=O)[C@@]3(CC)OC(=O)CN,,MIC,,,Mutant ΔERG6,,Saccharomyces cerevisiae,,>100 µg/mL
Nc1nc(N)c2ncn(CCOCP(=O)(O)O)c2n1,,MIC,,,,,Cytomegalovirus,,10 µg/mL
COc1cc2[nH]c(C)c(-c3ccc(C(F)(F)F)cc3)c(=O)c2cc1Cl,,EC50,HepG2,,Pb1052 c11,luciferase,Plasmodium berghei,,0.00307 µM
Nc1ncnc2c1ncn2CCOCP(=O)(O)O,,EC50,HEL,,Oka CF1742-resistant,cytopathic effect,Varicella zoster virus,,13.7 µM

For reference, 3 entries again:

compound | conditions | measure | cell line | changes | strain | method | species | dose | result
CCN(CC)CCCC(C)Nc1ccnc2cc(Cl)ccc12 |  | EC50 | HepG2 |  | Pb1052 c11 | luciferase | Plasmodium berghei |  | >1.2 µM
Nc1ncnc2c1ncn2[C@@H]1C=C(CO)[C@@H](O)[C@H]1O |  | MIC |  |  |  |  | Tacaribe virus |  | 0.3 µg/mL
NC(=O)c1ncn([C@H]2C=C[C@@H](CO)O2)n1 |  | EC50 |  |  |  | plaque count | Punta Toro virus |  | 28 µg/mL

Percent inhibition refers to the dose given; in toxicity tests it is the harm to the cells. An empty or dashed field is not shown. Neighbouring rows are from separate reports. ECn: concentration that inhibits the pathogen or its effect by n%.